Measurements reported in US20250241301A1, “COMPOSITIONS AND METHODS FOR INHIBITING PATHOGEN GROWTH ON PLANTS AND IMPROVING CROP SAFETY” (priority 2024, published 2025).

System: potato tubers
Settings: Trans-2-decenal 0.20 ml/kg alone or with PG; PG only […]; vapor; N = 5

| SMILES | 48 h Post Treatment No. of Lesions | 96 h Post Treatment No. of Lesions | TOTAL No. of Lesions (5 tubers) |
| --- | --- | --- | --- |
| CC(O)CO (stereo not drawn) [PG, propylene glycol] | 2 | 2 | 4 |
| CCCCCCC/C=C/C=O [Trans-2-decenal (T2D), Trans-2-Decenal] | 11 | 12 | 23 |
